Only a part of the results on these compounds is given; other tests are left out.

For orientation: % Inhibition means the relative decrease from the control value, in per cent.

This experiment relates to P. falciparum stage V gametocytes. Particulars: 48 h, 5 µM; inhibitor.

Take `CC(C)(C)c1cc2cc(N(C(=O)c3ccc(C(F)(F)F)cc3)C3CCN(Cc4ccccc4)CC3)ccc2[nH]1`: the “% Inhibition” value is -2.684%.

The values above are taken from publication PMC4552634, “A New Set of Chemical Starting Points with Plasmodium falciparum Transmission-Blocking Potential for Antimalarial Drug Discovery” (PLoS ONE, 2015).
